## Percent effect of library compounds

The filed quantity is “Percent Effect” (%).
How 0% and 100% were set is not recorded. Most values in the screen are low, and negative values occur.
The entries come from a sample that favours strong results.

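Whole-cell growth test on Mycobacterium tuberculosis, read after 3 days in glucose-containing 7H9 medium; the read-out is not stated. Concentration: 500 µM. Direction is inferred from retests: higher values go with more growth inhibition. About 18,000 compounds were tested under these conditions; 7.9% (about 1,400) showed 50% or more at least once.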

SMILES | Percent Effect
COCCCN(CCO)c1nccn2nc(C)cc12 | 39.03
NCCCNS(=O)(=O)CCc1ccccc1 | 5.239
COCCC1(CO)CCCN(C(=O)c2ccncc2)C1 (configuration not stated) | 2.215
Cn1ccnc1CN(CCO)CC1CC1 | 13.75
COCc1nn(CC(=O)c2cc(F)ccc2F)c(=O)o1 | 4.209
CC1c2ccsc2CCN1CCC(=O)N(C)C (configuration not stated) | 43.36
COc1ccccc1OC(C)CN (configuration not stated) | 87.48
OCC1(CNCc2ccccc2)CC1 | -1.815
NCC(CO)Cc1cc(F)ccc1F (configuration not stated) | 13.7
O=C(NC1CCCNC1)c1coc2ccccc12 (configuration not stated) | 56.31
OC1(CN2CCCC2)CCCN(Cc2ccncc2)C1 (configuration not stated) | 11.8
Cn1cc(Br)c(=O)c(NC(=O)c2ccoc2)c1 | -6.276
O=C(NCCOc1ncccc1Cl)c1cc(Cl)c[nH]1 | 80.13
NC(=O)C(N)c1ccc(Cl)cc1 (configuration not stated) | 40.19
CCc1nnsc1C(=O)N1CC(C)(C)C(C)(O)C1 (configuration not stated) | 5.423
CNC1CCN(C(=O)c2ccsc2)CC1 | -7.028
COC(=O)c1ccc(NC2CCN(C)CC2)o1 | -40.44
CCN1CCN(C(=O)Cc2ccc(OC)cc2)CC1 | 22.06
CCn1c(CN(C)CC(F)(F)F)nnc1[C@H]1C[C@@H](N)C1 | 19.25
Clc1cccnc1N1CCNCC1 | 1.317
CC[S+]([O-])CC(=O)NCCc1nc2c(s1)CCCC2 (configuration not stated) | 12.92
Cn1nnnc1SCCNCc1ccc(Br)cc1 | 78.24
OCCCc1cccc(CCCO)c1 | 18.56
NC(=O)CN1CCCN(c2nccs2)CC1 | 13.89
CCC=C(C)C(=O)NC1CCN(C(C)=O)CC1 | 16.98
CC(C)(C)NS(=O)(=O)c1ccccc1CN | 20.3
COC(=O)c1sccc1NC(=O)CSc1nnc(N)s1 | 21.6
CCc1cc(C#N)ccc1NC(=O)N[C@@H]1CCCNC1 | 38.53
COc1ncccc1C(=O)NC(C)c1ccncc1 (configuration not stated) | 14.57
O=c1ccccn1CCO | -6.806
COC(=O)CN1CCN(c2cccc(F)c2C#N)CC1 | 12.6
Cn1ncc(CN)c1C(F)(F)F | -1.92
CN1CCCN(C(=O)COc2cccc(Cl)c2)CC1 | 52.4
O=C(c1ccoc1)N1CCCCC1Cn1cccn1 (configuration not stated) | 10.77
Cc1nc(NC(=O)CN2CCn3ccnc3C2)sc1C | 18.59
CC(N)c1ccc(N2CCCCC2=O)cc1 (configuration not stated) | -13.13
Cc1ccc(S(=O)(=O)NCC(=O)NC2CC2)cc1C | 31.37
O=S(=O)(Cc1ccon1)N1CCCC(c2ncc[nH]2)C1 (configuration not stated) | -3.416
COCCOC(=O)N1CCN2CCNC(=O)C2C1 (configuration not stated) | 3.445
COCCN1CCN(C(=O)C(C)C)CC1 | 9.697
NC(CO)C1CCOCC1 (configuration not stated) | 9.011
NC(=O)CN1CCCC(C(=O)NC2CCCCC2)C1 (configuration not stated) | 5.936
CCN(CC)S(=O)(=O)c1ccc(CCC(=O)NC)cc1 | 31.51
CCC(Oc1ccccc1C)C(=O)NN1CCOCC1 (configuration not stated) | -2.737
CNCc1csc(C(C)(C)O)n1 | -10.22
CCS(=O)(=O)c1ccc(S(=O)(=O)N2CC[C@H](N)C2)cc1 | 12.1
CCN(CC)C(=O)NCCCOC(C)C | 32.3
CN(C)CCNC(=O)Cn1cc(NCC(C)(C)C)cn1 | 6.728
CS(=O)(=O)NCCCN1CCc2ccccc21 | 35.65
CNCc1c(C)cc(C)nc1OC | 5.855
CCc1nc(CCN)cs1 | 82.58
CCNC(=O)CN(CC)Cc1ccc(C#N)cc1 | 22.98
CNC(=O)c1cc(-c2ccccc2C)n[nH]1 | 66

The last 7 entries again:

SMILES	Percent Effect
CCN(CC)C(=O)NCCCOC(C)C	32.3
CN(C)CCNC(=O)Cn1cc(NCC(C)(C)C)cn1	6.728
CS(=O)(=O)NCCCN1CCc2ccccc21	35.65
CNCc1c(C)cc(C)nc1OC	5.855
CCc1nc(CCN)cs1	82.58
CCNC(=O)CN(CC)Cc1ccc(C#N)cc1	22.98
CNC(=O)c1cc(-c2ccccc2C)n[nH]1	66

From ChEMBL document CHEMBL3988442, “University of Dundee, Small-Polar-MMV Screening Library” (2021).